## PSTVd loop 15 mutant pool in Nicotiana benthamiana

From the data files of Wu et al. 2024, doi:10.1371/journal.ppat.1012142.

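A pool of all variants was put on leaves of three Nicotiana benthamiana plants. Samples came from the inoculated region at 5 days, the leaf margin at 10 and upper systemic leaves at 12.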

Region: loop 15 of PSTVd (intermediate strain), upper and lower strand joined, each 5' to 3', the first 7 letters being the upper strand, closing pairs included. Wild type: GGAAACCGCUACUAC. Varied positions (N): GGAAACCGNNNNNNC.

Numbers give reads per thousand; 0 = not seen among the reads, higher = more abundant. Each site shows the three plants. "Pool" is the share in the plasmid pool used as inoculum, on the same scale. The inoculated region was read from the minus strand, the other sites from the plus strand. IR is the inoculated region, LM the leaf margin, Sys the systemic leaves. For reference, wild type rose from 33.9 per thousand in the pool to 202, 200, 159 (inoculated region), 724, 746, 710 (leaf margin) and 856, 883, 880 (systemic leaves). Samples held 43,870 to 66,106 reads, so the smallest values rest on one or two reads. The authors trace changes outside the varied positions to PCR and sequencing errors or to mutation in the plant; presence does not show that a variant is infectious alone.

With GGAAACCGUGAAUGC (pool 0.256) the assay gave IR 0.328 / 0.257 / 0.495; LM 0.0485 / 0.0223 / 0.100; Sys 0.0161 / 0.0303 / 0.182.
With GGAAACCGUUGCGUC (pool 0.176) the assay gave IR 0.0491 / 0.0482 / 0.0762; LM 0.0485 / 0 / 0.0200; Sys 0 / 0 / 0.
With GGAAACCGGAACGCC (pool 0.208) the assay gave IR 0.0983 / 0.0643 / 0.0190; LM 0.0162 / 0.0445 / 0; Sys 0 / 0 / 0.
With GGAAACCGCCCCCGC (pool 0.256) the assay gave IR 0.131 / 0.0643 / 0.0762; LM 0.0162 / 0.0668 / 0; Sys 0.0161 / 0 / 0.
With GGAAACCGCUCAGCC (pool 0.400) the assay gave IR 0.0819 / 0.112 / 0.133; LM 0 / 0 / 0; Sys 0 / 0 / 0.0228.
With GGAAACCGAGCUUUC (pool 0.224) the assay gave IR 0.115 / 0.177 / 0.171; LM 0 / 0.0223 / 0; Sys 0.0483 / 0 / 0.
With GGAAACCGAACGCAC (pool 0.0960) the assay gave IR 0.229 / 0.193 / 0.209; LM 0.0323 / 0.356 / 0.0200; Sys 0.0161 / 0.0151 / 0.
With GGAAACCGGGUGCAC (pool 0.240) the assay gave IR 0.131 / 0.0964 / 0.0952; LM 0 / 0 / 0.0200; Sys 0 / 0 / 0.
With GGAAACCGGAAUAGC (pool 0.304) the assay gave IR 0.147 / 0.0964 / 0.0952; LM 0 / 0.0223 / 0; Sys 0 / 0 / 0.
With GGAAACCGCUCAAGC (pool 0.160) the assay gave IR 0.0983 / 0.112 / 0.0571; LM 0.0162 / 0 / 0.0200; Sys 0 / 0 / 0.
With GGAAACCGGCUGCAC (pool 0.208) the assay gave IR 0.0328 / 0.0482 / 0.0190; LM 0 / 0 / 0.0401; Sys 0 / 0 / 0.
With GGAAACCGUCGAUAC (pool 0.144) the assay gave IR 0.131 / 0.193 / 0.400; LM 0.113 / 0.111 / 0.160; Sys 0.0805 / 0.0303 / 0.0684.
With GGAAACCGCAGGUUC (pool 0.112) the assay gave IR 0.409 / 0.289 / 0.362; LM 0.0647 / 0.134 / 0.0801; Sys 0.0644 / 0.0454 / 0.0684.
With GGAAACCGAUAGGGC (pool 0.304) the assay gave IR 0.377 / 0.386 / 0.419; LM 0.0808 / 0.0445 / 0.120; Sys 0.0161 / 0 / 0.
With GGAAACCGUUUGGUC (pool 0.112) the assay gave IR 0.115 / 0.0643 / 0.0762; LM 0 / 0 / 0.0200; Sys 0 / 0 / 0.
With GGAAACCGUGAUAUC (pool 0.272) the assay gave IR 0.360 / 0.273 / 0.267; LM 0.146 / 0.0891 / 0.180; Sys 0.0161 / 0.0756 / 0.0684.
With GGAAACCGGGUGUCC (pool 0.176) the assay gave IR 0.0491 / 0.0482 / 0.152; LM 0.0162 / 0 / 0.0200; Sys 0 / 0 / 0.
With GGAAACCGGCACUAC (pool 0.288) the assay gave IR 0.295 / 0.482 / 0.267; LM 0.0808 / 0.0445 / 0.160; Sys 0.0322 / 0.0454 / 0.205.
With GGAAACCGCCGAAGC (pool 0.256) the assay gave IR 0.0655 / 0.161 / 0.0762; LM 0 / 0 / 0; Sys 0 / 0 / 0.
With GGAAACCGAGCUCAC (pool 0.192) the assay gave IR 0.115 / 0.161 / 0.114; LM 0.0162 / 0 / 0.0200; Sys 0 / 0 / 0.
With GGAAACCGAACCUCC (pool 0.272) the assay gave IR 0.0819 / 0.193 / 0.114; LM 0 / 0 / 0; Sys 0 / 0 / 0.
With GGAAACCGGCAUGUC (pool 0.176) the assay gave IR 0.0655 / 0.177 / 0.114; LM 0 / 0 / 0; Sys 0 / 0 / 0.
With GGAAACCGAGCUUCC (pool 0.160) the assay gave IR 0.0655 / 0.0803 / 0.0952; LM 0.0162 / 0 / 0; Sys 0.0161 / 0 / 0.
With GGAAACCGAUAGUUC (pool 0.304) the assay gave IR 0.311 / 0.289 / 0.343; LM 0.210 / 0.111 / 0.0200; Sys 0.0161 / 0 / 0.
With GGAAACCGCGUUCGC (pool 0.144) the assay gave IR 0.0819 / 0.112 / 0.133; LM 0.0323 / 0 / 0.0200; Sys 0 / 0 / 0.

The first 3 entries again:

* GGAAACCGUGAAUGC (pool 0.256) = IR 0.328 / 0.257 / 0.495; LM 0.0485 / 0.0223 / 0.100; Sys 0.0161 / 0.0303 / 0.182
* GGAAACCGUUGCGUC (pool 0.176) = IR 0.0491 / 0.0482 / 0.0762; LM 0.0485 / 0 / 0.0200; Sys 0 / 0 / 0
* GGAAACCGGAACGCC (pool 0.208) = IR 0.0983 / 0.0643 / 0.0190; LM 0.0162 / 0.0445 / 0; Sys 0 / 0 / 0